Results on 1 molecule are retold here after ChEMBL document CHEMBL1649232 (Antimicrob Agents Chemother, 2009).

In test [1] the test system is Influenza A virus. The test can be described thus: Ratio of IC50 for Influenza A virus A/New Caledonia/20/99 (H1N1)) harboring neuraminidase H274Y mutant to IC50 for Influenza A virus A/New Caledonia/20/99 (H1N1)) harboring wild type neuraminidase.
Test [2] relates to Influenza A virus. The test can be described thus: Ratio of IC50 for Influenza A virus A/New Caledonia/20/99 (H1N1)) harboring neuraminidase I222M and H274Y mutant to IC50 for Influenza A virus A/New Caledonia/20/99 (H1N1)) harboring wild type neuraminidase.
The subject of test [3] is Influenza A virus. As to the kind of experiment: Ratio of IC50 for Influenza A virus A/New Caledonia/20/99 (H1N1)) harboring neuraminidase I222M mutant to IC50 for Influenza A virus A/New Caledonia/20/99 (H1N1)) harboring wild type neuraminidase.
The subject of test [4] is Influenza A virus. The test can be described thus: Ratio of IC50 for Influenza A virus A/New Caledonia/20/99 (H1N1)) harboring neuraminidase I222V mutant to IC50 for Influenza A virus A/New Caledonia/20/99 (H1N1)) harboring wild type neuraminidase.

Regarding `CCC(CC)[C@H](NC(C)=O)[C@@H]1[C@H](O)[C@@H](C(=O)O)C[C@H]1NC(=N)N` [PERAMIVIR ANHYDROUS], the Ratio IC50 with Influenza A virus [1] was 347; in the test on Influenza A virus [2], 400; with Influenza A virus [3] it was 1; in the test on Influenza A virus [4], 1.
